Test results from patent publication US20250064840A1, “DRUG DELIVERY SYSTEMS BASED ON ENDOPEROXIDES USEFUL IN DIAGNOSIS AND THERAPY, AND METHODS THEREOF” (FACULDADE DE FARMÁCIA DA UNIVERSIDADE DE LISBOA, priority 2021, published 2025).

Experiment: Fe(II)-triggered tetraoxane activation and API release, UHPLC-MS
Details: room temperature, 24 hours

SMILES	doxorubicin release after Fe(II) activation (iron (II) bromide and TEMPO)	doxorubicin release after Fe(II) activation (iron (II) bromide and N-acetylcysteine (NAC), basic pH)
COc1cccc2c1C(=O)c1c(O)c3c(c(O)c1C2=O)C[C@](O)(C(=O)CO)C[C@H]3O[C@@H]1CC(NC(=O)OC2CCCC3(C2)OOC2(OO3)C3CC4CC(C3)CC2C4)[C@@H](O)[C@@H](C)O1 (stereo partly drawn) [IIc]	doxorubicin was also detected	–
COc1cccc2c1C(=O)c1c(O)c3c(c(O)c1C2=O)C[C@](O)(C(=O)CO)C[C@H]3O[C@@H]1CC(NC(=O)OCC2=CCCCC23OOC2(OO3)C3CC4CC2CC(O)(C4)C3)[C@@H](O)[C@@H](C)O1 (stereo partly drawn) [Compound IIe]	doxorubicin was not detected	release of doxorubicin was detected
